Results of unrelated studies side by side (data: NIAID ChemDB).

Shared fields: host cell toxicity; read-out: CC50

Rows are shuffled and stem from different studies.

| smiles | read by | cells | value |
|---|---|---|---|
| COc1cnc(-c2noc(C)n2)c2[nH]cc(C(=O)C(=O)N3CCN(C(=O)c4ccccc4)CC3)c12 | trypan blue | HeLa | >100 µM |
| COc1cc(CC[C@H](C[C@@H](CCc2cc(OC)c(OC)c(OC)c2)OC(C)=O)OC(C)=O)cc(OC)c1OC | XTT | 1A2 | 119.6 µM |
| O=C(NCCc1ccnc(-n2ccnc2)n1)Nc1cccc(F)c1 | - | PBMC | 50 µM |
| CSC1NN=C(c2sc(C)nc2C)N1C1C2CC3CC(C2)CC1C3 | MTT | 143B | <100 µM |
| CN1C=CN(c2cccc(N3C=CN(C)C3)n2)C1.[Cl][Au].[Cl][Au] | sulforhodamine / absorbance | HT-29 | >30 µM |
| CCOC(=O)c1cc(C(=O)c2ccccc2)n2ccc(C(=O)NCc3cccnc3)cc12 | MTT | H9 | 114.1 µM |
| O=C(CCC(CCC(=O)NCCc1c[nH]c2ccccc12)(CCC(=O)NCCc1c[nH]c2ccccc12)NC(=O)CCOCC(COCCC(=O)NC(CCC(=O)NCCc1c[nH]c2ccccc12)(CCC(=O)NCCc1c[nH]c2ccccc12)CCC(=O)NCCc1c[nH]c2ccccc12)(COCCC(=O)NC(CCC(=O)NCCc1c[nH]c2ccccc12)(CCC(=O)NCCc1c[nH]c2ccccc12)CCC(=O)NCCc1c[nH]c2ccccc12)COCCC(=O)NC(CCC(=O)NCCc1c[nH]c2ccccc12)(CCC(=O)NCCc1c[nH]c2ccccc12)CCC(=O)NCCc1c[nH]c2ccccc12)NCCc1c[nH]c2ccccc12 | MTS | CD4+ T-cell | >100 µM |
| O=C(NCCc1ccc2c(n1)NCCC2)Nc1ccc2c(c1)OCO2 | - | PBMC | 50 µM |
| CCCCN1C(c2sc(C)nc2C)=NNC1SCc1ccc(OC)cc1 | MTT | KBALB | >100 µM |
| O=C(NCCc1ccc2c(n1)NCCC2)Nc1cc(F)cc(F)c1 | - | PBMC | 14 µM |
| N=C1Sc2ccccc2C2=NCCCN12 | LDH | Dendritic cells | >300 µM |
| Nc1nc(N)c2ncn([C@@H]3O[C@H](CO)[C@@H](O)[C@@H]3O)c2n1 | - | CCRF-HSB-2 | 6 µM |
| CC(=N\NC(=O)c1ccc([N+](=O)[O-])o1)/C(Cl)=N/Nc1ccc(S(N)(=O)=O)cc1 | MTT | MDA-MB-231 | >50 µg/mL |
| CCCCN1C(c2sc(C)nc2C)=NNC1SCc1ccc(C(F)(F)F)cc1 | MTT | KBALB | >100 µM |
| CCOC(=O)c1cc(C(=O)c2ccc(Cl)cc2)n2ccc(C(=O)NCc3ccccn3)cc12 | MTT | H9 | 142.2 µM |
| Cc1nc(C)c(-c2n[nH]c(=S)n2C23CC4CC(CC(C4)C2)C3)s1 | MTT | KBALB | >100 µM |
| Cc1ncn(-c2ncc(F)c3c(C(=O)C(=O)N4CCN(C(=O)c5ccccc5)[C@H](C)C4)c[nH]c23)n1 | trypan blue | HeLa | >100 µM |
| O=C(NCCc1ccc2c(n1)NCCC2)Nc1ccc2c(cnn2Cc2ccccc2)c1 | - | PBMC | 9.6 µM |
| CCOC(=O)c1cc(C(=O)c2ccc3c(c2)OCO3)n2ccc(C(=O)NCc3ccccn3)cc12 | MTT | H9 | 89.1 µM |
| O=C(N/N=C(/CS(=O)(=O)c1ccccc1)c1ccccc1)c1ccc([N+](=O)[O-])o1 | MTT | MDA-MB-231 | >50 µg/mL |
| Nc1ncnc2c1ncn2[C@@H]1S[C@H](CO)[C@@H](O)[C@@H]1F | - | CCRF-HSB-2 | 189 µM |
| C[C@@H]1CC[C@@H]2CCCC[C@@H]2N1CCNC(=O)c1cc(Cl)ccc1O | - | MDCK | 40 µg/mL |
| O=C(CCCCCCCCc1ccccc1)c1c(O)cccc1O | resazurin | NCI-H187 | 18.05 µg/mL |
| Cc1nc(C)c(C(=O)NNC(=S)NC23CC4CC(CC(C4)C2)C3)s1 | MTT | KBALB | >100 µM |
| Cc1ccc(S(=O)(=O)NC(N)=NCCC[C@H](NC(=O)OCc2cccnc2)C(=O)N[C@H](C(=O)N[C@H](C=O)Cc2ccccc2)C(C)(C)C)cc1 | - | HELF | 36 µM |
| CCOC(=O)c1cc(C(=O)c2ccccc2)n2ccc(C(=O)NCc3ccccc3)cc12 | MTT | H9 | 91.4 µM |
| CCCCCCCCCCCC(=O)c1c(O)cc(O)cc1O | resazurin | NCI-H187 | 5.6 µg/mL |
| Cc1nc(C)c(-c2n[nH]c(=S)n2-c2ccc3ccccc3c2)s1 | MTT | KBALB | >100 µM |
| O=C(N/N=C(/CS(=O)(=O)c1ccccc1)c1ccc(Cl)cc1)c1ccc([N+](=O)[O-])o1 | MTT | MDA-MB-231 | >50 µg/mL |
| O=C(NCCc1ccc2c(n1)NCCC2)Nc1cccc2[nH]ccc12 | - | PBMC | 2.1 µM |
| Cc1nc(N(C)C(=O)Cc2ccc(-c3ccccn3)cc2)sc1S(N)(=O)=O | MTT | HEF | >30 µM |
| CC(=N\NC(=O)c1ccc([N+](=O)[O-])o1)/C(Cl)=N/Nc1ccccc1 | MTT | MDA-MB-231 | >50 µg/mL |
| CCOC(=O)c1cc(C(=O)NCc2ccccn2)n2ccc(C(=O)c3ccco3)cc12 | MTT | H9 | 103.2 µM |
| Cc1cn([C@@H]2O[C@H](CO)[C@@H](O)[C@@H]2O)c(=O)[nH]c1=O | - | CCRF-HSB-2 | 232 µM |
| CNC(=O)c1ccc(-c2ncc(OC)c3c(C(=O)C(=O)N4CCN(C(=O)c5ccccc5)CC4)c[nH]c23)o1 | trypan blue | HeLa | >100 µM |
| CN1C2CCC23CC[C@@H](NC(=O)c2cc(Cl)ccc2O)CC13 | - | MDCK | 100 µg/mL |
| O=c1[nH]c(=O)n([C@@H]2O[C@H](CO)[C@@H](O)[C@@H]2F)cc1I | - | CCRF-HSB-2 | 4 µM |
| CCOC(=O)c1cc(C(=O)c2ccccc2)n2ccc(C(=O)NCc3ccc4ccccc4c3)cc12 | MTT | H9 | 250.5 µM |
| COc1cnc(-c2n[nH]c(C)n2)c2[nH]cc(C(=O)C(=O)N3CCN(C(=O)c4ccccc4)CC3)c12 | trypan blue | HeLa | >100 µM |
| O=C(NCCc1ccc2c(n1)NCCC2)N1Cc2ccccc2C1 | - | PBMC | 50 µM |
| COc1cc(CC[C@H](C[C@@H](CCc2cc(OC)c(OC)c(OC)c2)OC(=O)c2ccc(Br)cc2)OC(=O)c2ccc(Br)cc2)cc(OC)c1OC | XTT | 1A2 | >301 µM |
| O=C(C(=O)N1CCN(C(=O)c2ccc(Br)o2)CC1)c1c[nH]c2c(-c3nn[nH]n3)ncc(Cl)c12 | trypan blue | HeLa | >100 µM |
| Cc1cn([C@H]2S[C@@H](CO)[C@H](O)[C@H]2F)c(=O)[nH]c1=O | - | CCRF-HSB-2 | 2.5 µM |
| Cc1cnn(-c2cc(Cl)nc3c(C(=O)C(=O)N4CCN(C(=O)c5ccccc5)[C@H](C)C4)c[nH]c23)c1 | trypan blue | HeLa | >100 µM |
| CC1(C)CCC[C@@]2(C)[C@H]1CC[C@@]1(CO1)[C@@H]2C/C=C1\CCOC1=O | XTT | 1A2 | 315.6 µM |
| Nc1nc2c(ncn2[C@@H]2O[C@H](CO)[C@@H](O)[C@@H]2O)c(=O)[nH]1 | - | CCRF-HSB-2 | 9.9 µM |
| O=C(CCc1ccc(F)c(F)c1)NCCc1ccc2c(n1)NCCC2 | - | PBMC | 50 µM |
| COc1ncc(OC)c2c(C(=O)C(=O)N3CCN(C(=O)c4ccccc4)C[C@H]3C)c[nH]c12 | trypan blue | HeLa | >100 µM |
| O=C(NCCc1ccc2c(n1)NCCC2)NCc1ccc(Cl)c(F)c1 | - | PBMC | 50 µM |
| COc1cnc(-c2noc(C)n2)c2[nH]cc(C(=O)C(=O)N3CCN(C(=O)c4ccccc4)[C@H](C)C3)c12 | trypan blue | HeLa | >100 µM |

For reference, 4 entries again:

| smiles | read by | cells | value |
|---|---|---|---|
| CC(=N\NC(=O)c1ccc([N+](=O)[O-])o1)/C(Cl)=N/Nc1ccccc1 | MTT | MDA-MB-231 | >50 µg/mL |
| O=C(NCCc1ccc2c(n1)NCCC2)Nc1cc(F)cc(F)c1 | - | PBMC | 14 µM |
| Cc1nc(C)c(-c2n[nH]c(=S)n2-c2ccc3ccccc3c2)s1 | MTT | KBALB | >100 µM |
| COc1cc(CC[C@H](C[C@@H](CCc2cc(OC)c(OC)c(OC)c2)OC(=O)c2ccc(Br)cc2)OC(=O)c2ccc(Br)cc2)cc(OC)c1OC | XTT | 1A2 | >301 µM |

CCn is the concentration with n% toxicity to the cells. An empty or dashed field is not shown.